Pooled drug test results. Numbers come from NIAID ChemDB, via PubChem.

Common to all: growth or infection tests; agent: Mycobacterium tuberculosis

Blank or dashed fields: not listed here.

SMILES	changes	measure	strain	conditions	method	tested at	result
NNC(=O)c1ccncc1	-	MIC50	ATCC 35820 (streptomycin-resistant)	-	-	-	0.07 µM
Cc1c(CN2CCOCC2)cc(-c2ccc(C(C)C)cc2)n1-c1ccc(F)cc1	-	MIC90	H37Rv	-	-	-	28.73 µM
COc1cc(/C=C/c2ccccn2)oc(=O)c1	-	MIC bound	H37Rv	-	BACTEC	-	>12.5 µg/mL
Clc1ccccc1C(c1ccccc1)(c1ccccc1)n1ccnc1	-	MIC50	ATCC 27294	-	-	-	20 µM
CC(CO)CC[C@H](O)[C@](C)(O)[C@H]1CC[C@@]2(O)C3=CC(=O)[C@@H]4C[C@@H](O)[C@@H](O)C[C@]4(C)[C@H]3CC[C@]12C	-	MIC	H37Rv	-	BACTEC	-	≥12.5 µg/mL
Cn1cc(C(=O)O)c(=O)c2cc([N+](=O)[O-])c3cccnc3c21	-	MIC90	BCG	-	-	-	1.4 µM
CCC(C)OC(=O)N1CCN(c2ccc3cc(-c4ccccc4)c(N4CCCCC4)nc3n2)CC1	-	inhibition	H37Rv	-	-	6.25 µg/mL	91%
COc1ccc2oc(=O)n(-c3cccc(Cl)c3)c(=O)c2c1	-	MIC	CNCTC MY331/88	-	-	-	62.5 µM
Cc1ccc(NC(=O)c2ccc([N+](=O)[O-])cc2)cc1Cl	-	MIC bound	H37Rv	-	BACTEC	-	>12.5 µg/mL
Cc1ccc2c(=O)n(-c3ccc(Cl)c(Cl)c3)c(=O)oc2c1	-	MIC	CNCTC MY331/88	-	-	-	8 µM
O=C(Nc1ccc(Cl)c([N+](=O)[O-])c1)N1CCN(S(=O)(=O)c2cccc3cnccc23)CC1	Inosine monophosphate dehydrogenase-resistant	MIC90	SRMV2.6	-	resazurin	-	>100 µM
CC(C)(C)SC(=S)SCC(=O)c1cc2ccccc2o1	-	inhibition	H37Rv	-	BACTEC	12.5 µg/mL	75%
FC(F)(F)c1ccc(-n2c(=S)oc3ccc(Br)cc3c2=S)cc1	-	MIC	My 331/88	14 d	-	-	4 µM
CCC[CH2][Sn]([Cl])([CH2]CCC)[S]C(=S)NCCNC(=S)[S][Sn]([Cl])([CH2]CCC)[CH2]CCC	-	inhibition	H37Rv	-	resazurin	6.25 µg/mL	99%
O=c1oc2ccc(Cl)cc2c(=S)n1-c1cccc(F)c1	-	MIC	My 331/88	21 d	-	-	4 µM
C=C(C)/C=C/[C@]12C[C@H](C)[C@H]3CC[C@](C)(NC=O)[C@@H](CC[C@H]1C)[C@@H]32	-	MIC	H37Rv	-	-	-	32 µg/mL
O=c1oc2ccc(Br)cc2cc1-c1cs/c(=N/N=C/c2ccc(Cl)cc2)n1C1CCCCC1	-	EC50	H37Rv	-	-	-	>12.5 µg/mL
c1ccc(-c2c(C(c3ccccc3)n3ccnc3)cnn2-c2ccccc2)cc1	-	MIC50	ATCC 35820 (streptomycin-resistant)	-	-	-	43.5 µM
COC(=O)C(Cc1ccc2c(c1)OCO2)(NC(=O)c1ccccc1)P(=O)(OC)OC	-	inhibition	H37Rv	-	BACTEC	12.5 µg/mL	17%
Cc1ccc2oc(=S)n(-c3ccc(F)cc3)c(=S)c2c1	-	MIC	My 331/88	21 d	-	-	8 µM
Cc1cccc(OC/C(N)=N\NC(=O)c2ccncc2)c1	-	MIC50	16 isolates	-	-	-	12.5 µg/mL
NC1[C@H]2CN(c3nc4c(cc3F)c(=O)c(C(=O)O)cn4-c3ccc(F)cc3F)C[C@@H]12	-	MIC90	44 isolates (resistant)	-	-	-	128 µg/mL
O=c1[nH]c2cc([N+](=O)[O-])ccc2c(O)c1N=Nc1ccc(Cl)c(F)c1	-	MIC	H37Rv	-	resazurin	-	<6.25 µg/mL
Cc1ccc2oc(=S)n(-c3ccc(C(F)(F)F)cc3)c(=S)c2c1	-	MIC	My 331/88	14 d	-	-	4 µM
CCn1c(-c2cc3ccccc3oc2=O)cs/c1=N\N=C\c1cc(Br)ccc1O	-	inhibition	H37Rv	-	-	12.5 µg/mL	83%
N/C(COc1ccc(Cl)cc1)=N/NC(=O)c1ccncc1	-	MIC90	16 isolates	-	-	-	12.5 µg/mL
CCOC(=O)C(N)CSC(=O)NC.Cl	-	MIC bound	H37Rv	-	BACTEC	-	>12.5 µg/mL
CCCc1ccc(-n2c(-c3ccc(OC)cc3)cc(CN3CCOCC3)c2C)cc1	-	MIC90	H37Rv	-	-	-	7.31 µM
NNC(=O)C12C3(Cl)C4(Cl)C(Cl)(Cl)C5(Cl)C3(Cl)C1(Cl)C5(Cl)C42Cl	-	MIC	H37Rv	-	BACTEC	-	≥12.5 µg/mL
COc1ccc2oc(=O)n(-c3ccc(Cl)c(Cl)c3)c(=S)c2c1	-	MIC	My 331/88	14 d	-	-	16 µM
COc1ccc2c(-c3ccccc3)cc(N3CCNCC3)nc2n1	-	MIC	H37Rv	-	-	-	>6.25 µg/mL
CCOC(=O)C1=NN(c2ccccc2)C(=O)C1N=Nc1ccc(S(=O)(=O)Nc2cc(C)nc(C)n2)cc1	-	MIC	H37Rv	-	BACTEC	-	≥12.8 µg/mL
CCOC(=O)c1cn(CC)c2c(cc([N+](=O)[O-])c3cccnc32)c1=O	-	MIC90	BCG	-	-	-	2.5 µM
Cc1cccc(C(N)=Nc2nc(-c3ccccn3)cc3ccccc23)c1	-	MIC	-	-	-	-	1 µg/mL
O=c1oc2ccc(F)cc2c(=S)n1-c1cccc(F)c1	-	MIC	My 331/88	14 d	-	-	8 µM
O=c1[nH]c2c(Cl)c(Cl)ccc2c(O)c1N=Nc1ccccc1	-	MIC	H37Rv	-	resazurin	-	<6.25 µg/mL
NNC(=O)CCC(NC(=O)OCc1ccccc1)C(=O)NN	-	MIC	H37Rv	-	BACTEC	-	>12.5 µg/mL
Nc1ccc2c(-c3ccccc3)cc(N3CCOCC3)nc2n1	-	MIC	H37Rv	-	-	-	>6.25 µg/mL
Clc1ccc(-n2ncc(C(c3ccccc3)n3ccnc3)c2-c2ccccc2Cl)c(Cl)c1	-	MIC90	ATCC 27294	-	-	-	26.2 µM
CO[C@H]1/C=C/O[C@@]2(C)Oc3c(C)c(O)c4c(O)c(c5c(c4c3C2=O)NC2(CCN(CC(C)C)CC2)N=5)=NC(=O)/C(C)=C\C=C\[C@H](C)[C@H](O)[C@@H](C)[C@@H](O)[C@@H](C)[C@H](OC(C)=O)[C@@H]1C	-	MIC	Isolate 900240 drug-susceptible	-	-	-	0.063 µg/mL
Nc1cc2cc(-c3ccccc3)c(N3CCCCC3)nc2nc1N1CCCCC1	-	inhibition	H37Rv	-	-	6.25 µg/mL	71%
O=C1CSC(c2c(F)cccc2F)N1c1nncs1	-	inhibition	H37Rv	-	BACTEC	12.5 µg/mL	0%
COc1ccc2cc(-c3ccccc3)c(N3CCN(C(=O)OC(C)C)CC3)nc2n1	-	inhibition	H37Rv	-	-	6.25 µg/mL	43%
Cc1ccc(-c2cc(CN3CCOCC3)c(C)n2-c2ccc(F)cc2)cc1	V681I	MIC	H37Rv DR2	-	-	-	5.4 µM
Fc1ccc(-c2c(C(c3ccccc3)n3ccnc3)cnn2-c2ccccc2)cc1	-	MIC90	ATCC 27294	-	-	-	≥100 µM
Cc1cccc(Cl)c1NC(=O)N1CCN(S(=O)(=O)c2cccc3cnccc23)CC1	Inosine monophosphate dehydrogenase-resistant	MIC90	SRMV2.6	-	resazurin	-	>250 µM
Cc1ccccc1N=Nc1c(O)c2cc(-c3ccccc3)ccc2oc1=O	-	MIC	H37Rv	-	resazurin	-	<6.25 µg/mL
CCCCn1c(-c2cc3ccccc3oc2=O)cs/c1=N\N=C\c1cc(Br)ccc1O	-	MIC	H37Rv	-	-	-	>12.5 µg/mL
Clc1ccc(-c2c(C(c3ccccc3)n3ccnc3)cnn2-c2ccc(Cl)cc2)cc1	-	MIC50	ATCC 35828 (pyrazinamide-resistant)	-	-	-	≥100 µM
Nc1ccc2c(-c3ccccc3)cc(N3CCN(c4ccccc4)CC3)nc2n1	-	inhibition	H37Rv	-	-	6.25 µg/mL	94%
Cc1ccccc1OC/C(N)=N\NC(=O)c1ccncc1	-	MIC	ATCC 35822 (isoniazid-resistant)	-	-	-	100 µg/mL
O=C(NCc1ccccc1)N1CCN(S(=O)(=O)c2cccc3cnccc23)CC1	Inosine monophosphate dehydrogenase-resistant	MIC90	SRMV2.6	-	resazurin	-	>100 µM
Clc1ccc(-n2ncc(C(c3ccccc3)n3ccnc3)c2-c2ccccc2)c(Cl)c1	-	MIC50	ATCC 35828 (pyrazinamide-resistant)	-	-	-	48.9 µM
O=C(C1CCCCCC1)N1CCN(S(=O)(=O)c2cccc3cnccc23)CC1	Inosine monophosphate dehydrogenase-resistant	MIC90	SRMV2.6	-	resazurin	-	>250 µM
OC(c1cc(-c2ccc(C(F)(F)F)cc2)nc(C(F)(F)F)c1)C1CCCCN1	-	MIC	H37Rv	-	BACTEC	-	4 µg/mL
COc1ccc2oc(=O)n(-c3ccc(F)cc3)c(=O)c2c1	-	MIC	CNCTC MY331/88	-	-	-	125 µM
CCOC(=O)c1cc2sc(NC(=O)c3ccco3)nc2o1	-	MIC bound	H37Rv	-	BACTEC	-	>12.5 µg/mL
Cc1cccc(N=Nc2c(O)c3ccc(Cl)cc3[nH]c2=O)c1	-	inhibition	H37Rv	-	resazurin	6.25 µg/mL	70%
CCCCC1NC(=O)OC1=O	-	MIC bound	H37Rv	-	BACTEC	-	>12.5 µg/mL
O=c1[nH]c2c(Cl)c(Cl)ccc2c(O)c1N=Nc1ccc([N+](=O)[O-])cc1	-	MIC	H37Rv	-	resazurin	-	<6.25 µg/mL
COc1ccc2oc(=S)n(-c3ccc(Cl)c(Cl)c3)c(=S)c2c1	-	MIC	My 331/88	14 d	-	-	16 µM
CCN1CCN(c2cc(-c3ccccc3)c3ccc(OC)nc3n2)CC1	-	inhibition	H37Rv	-	-	6.25 µg/mL	72%
CCCCn1c(-c2cc3ccccc3oc2=O)cs/c1=N\N=C\c1ccc(O)c(OCC)c1	-	MIC	H37Rv	-	-	-	<12.5 µg/mL
CO[C@H]1/C=C/O[C@@]2(C)Oc3c(C)c(O)c4c(O)c(c5c(c4c3C2=O)NC2(CCN(CC(C)C)CC2)N=5)=NC(=O)/C(C)=C\C=C\[C@H](C)[C@H](O)[C@@H](C)[C@@H](O)[C@@H](C)[C@H](OC(C)=O)[C@@H]1C	-	MIC	1 isolates	-	-	-	5 µg/mL
Cc1ccc2c(=O)n(-c3cccc([N+](=O)[O-])c3)c(=O)oc2c1	-	MIC	CNCTC MY331/88	-	-	-	8 µM
CCN1CCN(c2cc(-c3ccccc3)c3ccc(Cl)nc3n2)CC1	-	MIC	H37Rv	-	-	-	>6.25 µg/mL
O=C(Nc1ccc2c(c1)OCO2)N1CCN(S(=O)(=O)c2cccc3cnccc23)CC1	Inosine monophosphate dehydrogenase-resistant	MIC90	SRMV2.6	-	resazurin	-	>100 µM
CCN1CCN(c2cc(-c3ccccc3)c3ccc(N)nc3n2)CC1	-	inhibition	H37Rv	-	-	6.25 µg/mL	69%
CC(=O)Nc1ccc(S(=O)(=O)N/N=C/c2cc(Cl)ccc2O)cc1	-	MIC bound	H37Rv	-	BACTEC	-	>12.5 µg/mL
CCOc1cc(/C=N/N=c2\scc(-c3cc4ccccc4oc3=O)n2CC)ccc1O	-	MIC	H37Rv	-	-	-	>12.5 µg/mL
S=C(S)NN1CCCC1	-	MIC	H37Rv	-	BACTEC	-	0.8 µg/mL
Clc1ccc(-n2ncc(C(c3ccccc3)n3ccnc3)c2-c2ccccc2)cc1	-	MIC90	ATCC 27294	-	-	-	84 µM
Nc1nc2nn(-c3ccc(C(=O)NC(CCC(=O)O)C(=O)O)cc3)nc2c(=O)[nH]1	-	MIC	H37Rv	-	BACTEC	-	≥12.5 µg/mL
CO/N=C1\CN(c2nc3c(cc2F)c(=O)c(C(=O)O)cn3C2CC2)CC1CN	-	MIC90	44 isolates (resistant)	-	-	-	8 µg/mL
O=C(NCc1ccccc1)C1C(=O)C(=O)N(Cc2ccccc2)C1=O	-	inhibition	H37Rv	-	resazurin	6.25 µg/mL	12%
CO[C@H]1/C=C/O[C@@]2(C)Oc3c(C)c(O)c4c(O)c(c(/C=N/N5CCN(C)CC5)c(O)c4c3C2=O)NC(=O)/C(C)=C\C=C\[C@H](C)[C@H](O)[C@@H](C)[C@@H](O)[C@@H](C)[C@H](OC(C)=O)[C@@H]1C	-	MIC90	ATCC 35820 (streptomycin-resistant)	-	-	-	1.1 µM
O=C(N/N=C/c1ccccc1Cl)C(O)C(O)C(O)C(O)CO	-	inhibition	H37Rv	-	BACTEC	12.5 µg/mL	31%
O=C(Cc1ccc([N+](=O)[O-])cc1)N1CCN(S(=O)(=O)c2cccc3cnccc23)CC1	Inosine monophosphate dehydrogenase-resistant	MIC90	SRMV2.6	-	resazurin	-	>250 µM
COc1cc2oc(-c3ccc(O)cc3O)c(CC=C(C)C)c(=O)c2c(O)c1/C=C/C(C)C	-	MIC	H37Rv	-	-	-	>12.5 µg/mL
CCc1ccc(-c2cc(CN3CCOCC3)c(C)n2-c2ccc(F)cc2)cc1	V681I V581A N365S	MIC	H37Rv DR4	-	-	-	0.66 µM

9 of the rows above, restated:

SMILES	changes	measure	strain	conditions	method	tested at	result
CCOC(=O)C(N)CSC(=O)NC.Cl	-	MIC bound	H37Rv	-	BACTEC	-	>12.5 µg/mL
O=C(N/N=C/c1ccccc1Cl)C(O)C(O)C(O)C(O)CO	-	inhibition	H37Rv	-	BACTEC	12.5 µg/mL	31%
Nc1ccc2c(-c3ccccc3)cc(N3CCOCC3)nc2n1	-	MIC	H37Rv	-	-	-	>6.25 µg/mL
Cc1ccccc1OC/C(N)=N\NC(=O)c1ccncc1	-	MIC	ATCC 35822 (isoniazid-resistant)	-	-	-	100 µg/mL
CCCCn1c(-c2cc3ccccc3oc2=O)cs/c1=N\N=C\c1cc(Br)ccc1O	-	MIC	H37Rv	-	-	-	>12.5 µg/mL
CO/N=C1\CN(c2nc3c(cc2F)c(=O)c(C(=O)O)cn3C2CC2)CC1CN	-	MIC90	44 isolates (resistant)	-	-	-	8 µg/mL
CCOC(=O)c1cn(CC)c2c(cc([N+](=O)[O-])c3cccnc32)c1=O	-	MIC90	BCG	-	-	-	2.5 µM
Clc1ccc(-c2c(C(c3ccccc3)n3ccnc3)cnn2-c2ccc(Cl)cc2)cc1	-	MIC50	ATCC 35828 (pyrazinamide-resistant)	-	-	-	≥100 µM
O=C(C1CCCCCC1)N1CCN(S(=O)(=O)c2cccc3cnccc23)CC1	Inosine monophosphate dehydrogenase-resistant	MIC90	SRMV2.6	-	resazurin	-	>250 µM

Conditions beyond the fields shown may differ between rows. MIC bound comes from a single tested concentration. MIC50, MIC90 and the like: level of inhibition, or share of isolates inhibited. ECn is the concentration giving n% inhibition of infection, replication or growth. Percent inhibition refers to the dose given; in toxicity tests it is the harm to the cells.